## Library screen at single concentrations

The values are deposited in ChEMBL (CHEMBL3988442, “University of Dundee, Small-Polar-MMV Screening Library” (2021)).

A: 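Phenotypic screen: M. tuberculosis growth, glucose 7H9 medium, 3 days; the read-out is not stated. Tested at 50 µM. Higher reads as more growth inhibition (inferred: compounds with an IC50 in retests scored well above the rest). Size under these conditions: about 69,000 compounds, about 760 of them at 50% or above in at least one test.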
B: 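Whole-cell growth test on Mycobacterium tuberculosis, read after 4 days in a medium based on cholesterol and the lipid DPPC; the read-out is not stated. Concentration: 50 µM. Direction is inferred from retests: higher values go with more growth inhibition. About 69,000 compounds were tested under these conditions; 0.54% (about 370) showed 50% or more at least once.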

Values are the deposited “Percent Effect”, in %.
The record does not define 0% and 100%; most values in the screen are far below 50% and negative numbers occur (in some assays of this library far below -100).
The entries come from a sample that favours strong results.
Two or more numbers in one place are separate tests of the same structure; such repeats can differ widely.

* CCn1ncc2c1C(COC)CN(c1ncc(F)cn1)C2.O=C(O)C(F)(F)F.O=C(O)C(F)(F)F (centres unmarked) : A: -9.96%
* CN(CCc1ccccn1)C(=O)c1ccccc1F : A: 24.26%
* CC(O)CN1CCN(C(=O)c2ccc(Br)o2)CC1 (centres unmarked) : A: -9.381%; B: -23.49%
* COc1ccc(C[C@H]2CN(C(=O)CN(C)C)CC[C@H]2OC)cc1.O=C(O)C(F)(F)F : B: 54.35%
* CC(C)N(CCNC(=O)c1n[nH]c2ccccc12)C(C)C : B: -5.205%
* CCN(C)C[C@@H]1CN(C(=O)c2cc(C(F)(F)F)n[nH]2)C[C@@H]1CO : A: 7.907%; B: 1.862%
* CC(C)c1nnc2n1CCN(C(=O)c1ccc(-n3cnnc3)cc1)C2 : B: 74.67%
* FC1(F)CCN(Cc2cccnc2)CC12CCN(c1cnccn1)C2.O=C(O)C(F)(F)F.O=C(O)C(F)(F)F.O=C(O)C(F)(F)F (centres unmarked) : A: 19.47%; B: -3.338%
* O=C(CC1CCCCC1)N1CCC(c2ncc3c(n2)CCNC3)CC1 : A: 13.08%
* O=C(c1ccc2c(c1)OCO2)N1C[C@@H](CN2CCCCC2)[C@@H](CO)C1 : A: -2.863%
* Cc1c(Br)cccc1CSc1nnc(CO)n1C : A: 3.12% and 6.393%; B: -6.73%
* Cc1nonc1CN(C)CC1(O)CCCN(CCC2CCCCC2)C1=O (centres unmarked) : B: -13.45%
* OCC1CCCN1c1cc(N2CCc3ccccc3C2)ncn1 (centres unmarked) : A: -1.651%
* Cc1ccc(Br)cc1C(=O)Nc1cc(C(N)=O)n(C)c1 : A: 16.11%; B: 5.637%
* Cn1c(CCNc2nccnc2C#N)nc2ccc(F)cc21 : A: 1.815%
* CN1CCN(C(=O)c2cc(-c3ccco3)cs2)CC1 : A: 10.12%
* Cl.Clc1ccccc1CN1CCc2nc(C3CCCNC3)ncc2C1 (centres unmarked) : A: 52.52%
* CNc1cc(C)nc(N2Cc3cnn(Cc4ccc(F)cc4)c3C2)n1 : A: 89.01%; B: 77.9% and 79.23%
* COc1cc(S(=O)(=O)N2C[C@@H](C)[C@@](C)(O)C2)c(C)cc1C : A: 5.143%
* CC1(C)Cc2c(cnn2-c2cccc(F)c2)C(NC2CCSCC2)C1 (centres unmarked) : A: 13.23% and 14.72%
* CCNC(=O)N(C)C(c1ccccc1)c1ccccn1 (centres unmarked) : A: 8.477%; B: 25.29%
* CCOCCCn1c(NC(=O)c2scnc2C)nc2ccccc21 : A: 54.96%
* Cc1nn(-c2ccccc2)c2nc(C(C)(C)CN3CCN(C)CC3)[nH]c12 : A: 20.3%
* O=C(C1CC1)N1CCC2(CCN(Cc3cccc(F)c3)CC2)CC1.O=C(O)C(F)(F)F : A: -6.424% and -23.65%; B: -11.85%
* CC(C)N1CCC(CNCc2c[nH]nc2C(C)(C)C)C1 (centres unmarked) : A: 45.4%; B: 37.29%
* Cc1cc(C)nc(N2CCC(C(=O)Nc3ccc(C(C)C)cc3)CC2)n1 : A: -6.855%
* [H][C@]12CC[C@]([H])(CN(Cc3snnc3C)C1)N(Cc1ccccc1)C2 : A: -12.07%
* CS(=O)(=O)c1ccc2c(c1)N(C(=O)Cc1ccc(F)cc1)CCC2 : A: -27.48%
* Cc1cccc(CS(=O)(=O)NCC(O)Cc2ccccc2)c1 (centres unmarked) : A: 13.95% and 6.852%
* N#Cc1cccc(N2CCCC(CO)(Cc3ccccc3F)C2)n1 (centres unmarked) : A: 28.72%; B: 87.33%
* CCNC(=O)NCCc1csc(N2CCCC2)n1 : A: -12.44%
* O[C@@H]1CN(CC2=Cc3cc(Cl)ccc3OC2)CC[C@H]1N1CCCCCC1 : A: 63.06%

For reference, 4 entries once more:

{"compound": "CCNC(=O)N(C)C(c1ccccc1)c1ccccn1", "stereo": "centres unmarked", "A": 8.477, "B": 25.29}
{"compound": "CNc1cc(C)nc(N2Cc3cnn(Cc4ccc(F)cc4)c3C2)n1", "A": 89.01, "B": "77.9 and 79.23"}
{"compound": "Cc1nn(-c2ccccc2)c2nc(C(C)(C)CN3CCN(C)CC3)[nH]c12", "A": 20.3}
{"compound": "CN1CCN(C(=O)c2cc(-c3ccco3)cs2)CC1", "A": 10.12}